According to ChEMBL document CHEMBL3885881, “DrugMatrix”:

Organism: Rattus norvegicus
Experiment: DrugMatrix - Regimen: Daily Repeat
Type: toxicity, organism-based, Sprague-Dawley
Set-up: regimen Daily Repeat, gender Male, age 6-8 weeks
Details: in vivo, po, 120 h, tissue Blood, route oral GAVAGE, time 5 day, vehicle 100 % WATER

Sequence: THIMEROSAL
- MONOCYTE (1 mg/kg, dose level Low): 2.33%
- MONOCYTE (10 mg/kg, dose level High): 2.33%
